This note sets out measurements from publication PMC10141620 (Viruses, 2023).

Values joined by “and” are separate entries in the source; they are usually repeats but may differ in a detail not shown here. Identical values can stand only once.

This data set relates to NL4-3ΔEnv-NanoLuc/SARS-CoV-2 (USA-WA1/2020) pseudovirus. Format: cell-based. The settings on record: ratio CC50 / IC50.
For the compound `Cc1ccc2nc3s/c(=C/c4coc(-c5ccc(Cl)c(C(=O)O)c5)c4)c(=O)n3c2c1` [NBCoV35], the SI is 253 and 397.

`O=C(O)c1cc(-c2ccc(/C=c3\sc4nc(=O)c5c6c(sc5n4c3=O)CCCC6)o2)ccc1Cl` [NBCoV36]: the SI is 130 and >220.

With `Cc1cc(C)c2nc3s/c(=C\c4ccc(-c5ccc(Cl)c(C(=O)O)c5)o4)c(=O)n3c2c1` [NBCoV37], the SI was 644 and 345.

As for `Cc1cc2nc3s/c(=C/c4ccc(-c5cccc(C(=O)O)c5)o4)c(=O)n3c2cc1C` [NBCoV63], the SI was > 625 and 909.

With `Cc1ccc2c(nc3s/c(=C\c4ccc(-c5ccccc5C(=O)O)o4)c(=O)n32)c1C` [NBCoV68], the SI is >13 and >22.

With `Cc1ccc2c(nc3s/c(=C/c4ccc(-c5ccc(C(=O)O)cc5)o4)c(=O)n32)c1C` [NBCoV69], the SI is >20 and >17.

Consider `Cc1cc(C(=O)O)ccc1-c1ccc(/C=c2\sc3nc4ccccc4n3c2=O)o1` [NBCoV70], for which the SI is >5.

On to `O=C(O)c1ccc(-c2ccc(/C=c3/sc4nc5ccccc5n4c3=O)o2)cc1Cl` [NBCoV75], for which the SI is >10 and >15.

Regarding `Cc1cc2nc3s/c(=C/c4ccc(-c5ccc(Cl)cc5)o4)c(=O)n3c2cc1C` [NBCoV78], the SI is given as >6.

As to `Cc1cc2nc3s/c(=C/c4ccc(-c5ccccc5C(=O)O)o4)c(=O)n3c2cc1C` [NBCoV81], the SI is > 109 and >129.
